Where a SMILES comes first, the peptide text is derived from it. [ ]: non-standard residue; d: D form. The star is where a group is joined. Ac5c = NC1(C(=O)O)CCCC1; Cbz = O=C(OCc1ccccc1)*
Assay: quenching effect observed in the high-throughput radioactivity-based screen

Compound | Quenching effect % [%]
O=C(O)c1ccc(C(=O)c2ccc(C(=O)c3ccc(C(=O)O)cc3)cc2)cc1 [NSC2269] | 1
O=C(CN1CCOCC1)C(O)C(O)C(O)CO (stereo not drawn) [NSC4348] | 9
O=C(O)c1nc(N=Nc2ccc(S(=O)(=O)O)cc2)[nH]c1C(=O)O [NSC4624] | 49
O=C(N/N=C/[C@H](O)[C@H]1OC(=O)[C@@H](O)[C@H]1O)c1ccncc1 [NSC27605] | 2
OCC(O)C(O)C(O)C(O)c1nc2ccccc2s1 (stereo not drawn) [NSC34443] | −7
O=C(NNCNNC(=O)c1ccncc1)c1ccncc1 [NSC39302] | 12
Nc1nc2nn(-c3ccc(C(=O)NC(CCC(=O)O)C(=O)O)cc3)nc2c(=O)[nH]1 (stereo not drawn) [NSC44037] | 8
OCCNc1ncnc2c1ncn2[C@@H]1O[C@H](CO)[C@@H](O)[C@H]1O [NSC54251] | −1
O=C1C2C3C=CC(O3)C2C(=O)N1/N=C/C(O)C(O)C(O)C(O)CO (stereo not drawn) [NSC60360] | 10
O=c1cc(-c2ccc(O)cc2)oc2c(O)c(O)c(O)c(O)c12 [NSC76988] | 8
O=C1C=C(O)C(=C/C=C/C=C/c2c(O)cc(O)cc2O)C(O)=C1 [NSC77131] | 52
Nc1ncnc2c1ncn2[C@H]1C[C@H](O)[C@@H](COP(=O)(O)O)O1 [NSC77680] | 21
O=C(O)CNC(=O)C1(NC(=O)CNC(=O)OCc2ccccc2)CCCC1 [NSC80136] (Cbz-Gly-[Ac5c]-Gly-OH) | −3
O=C(CCCCn1ccc(=O)[nH]c1=O)Nc1ccc(C(=O)O)c(O)c1 [NSC92432] | 8
CN(CC(O)C(O)C(O)C(O)CO)CN1C(=O)C(=O)c2ccccc21 (stereo not drawn) [NSC99790] | 33
O=S(=O)(O)c1cc(Cl)cc(N=Nc2ccc(O)cc2O)c1O [NSC102798] | 61
OC1COC(n2cnc3c(=S)nc[nH]c32)C(O)C1O (stereo not drawn) [NSC107661] | −2
Nc1ncnc2c1ncn2C1OC(CO)C(NC(=O)C(N)Cc2ccccc2)C1O (stereo not drawn) [NSC114010] | −2
NC(CCC(=O)NC(CSCc1ccc(F)cc1)C(=O)NCC(=O)O)C(=O)O (stereo not drawn) [NSC131119] | 14
NC(CCCNc1nc(O)c(-c2ccccc2)c(=O)[nH]1)C(=O)O (stereo not drawn) [NSC132916] | 3

Compound | Quenching effect % [%]
O=C(O)/C=C\C(=O)NCC1CCC(CNC(=O)/C=C\C(=O)O)CC1 (stereo not drawn) [NSC137050] | 3
NS(=O)(=O)c1ccc(NC2OCC(O)C(O)C2O)cc1 (stereo not drawn) [NSC158437] | 15
Nc1ncnc2c1ncn2C1OC(C(=O)NCC(=O)O)C(O)C1O (stereo not drawn) [NSC163444] | 2
O=C(O)c1cc(=O)n(CCCCCCn2c(=O)cc(C(=O)O)[nH]c2=O)c(=O)[nH]1 [NSC232469] | −4
O=P(O)(O)OC[C@H]1O[C@@H](n2cnc3c(NCc4ccccc4)ncnc32)[C@H](O)[C@@H]1O [NSC255523] | −7
CC(C)=CCNc1ncnc2c1ncn2[C@@H]1O[C@H](COP(=O)(O)O)[C@@H](O)[C@H]1O [NSC268226] | 3
Cn1c(=O)c2c(ncn2CCCNCC(O)c2ccc(O)c(CO)c2)n(C)c1=O (stereo not drawn) [NSC293892] | −5
CC(CCc1ccc2c(c1)OCO2)NCC(O)c1ccc(O)c(C(N)=O)c1 (stereo not drawn) [NSC313453] | 5
O=C(O)CCC(=O)NCC1CCCC(CNC(=O)CCC(=O)O)C1 (stereo not drawn) [NSC317609] | 8
O=P(O)(O)OC1OC(n2cnc3c(NCc4ccc(F)cc4)ncnc32)C(O)C1O (stereo not drawn) [NSC330685] | 1
O=C(O)C(Cc1ccc(O)cc1)NC(c1ccccc1)P(=O)(O)O (stereo not drawn) [NSC377438] | 17
NC(CSCCSCCSCC(N)C(=O)O)C(=O)O (stereo not drawn) [NSC400718] | 23
O=S(=O)(O)c1ccc(N=Nc2c(O)ccc3n[nH]nc23)cc1 [NSC400937] | 70
O=c1ccn(C2OC(C(O)CO)C(O)C2O)c(=O)[nH]1 (stereo not drawn) [NSC613624] | 6
Nc1ncnc2c1ncn2[C@@H]1O[C@H](CSCc2ccc(Cl)cc2)[C@@H](O)[C@H]1O [NSC620333] | 23
COc1cc(N=Nc2ccccc2C(=O)O)cc(/C=N/NNC(N)=S)c1O [NSC630814] | 75
O=C1NC(=O)C(C(=O)C(=O)Nc2cccc(C(F)(F)F)c2)C(=O)N1 [NSC646375] | 1
NC(CCCC(N)P(=O)(O)c1ccccc1)P(=O)(O)c1ccccc1 (stereo not drawn) [NSC655184] | 5
O=C(O)c1ccc(Nc2nc3ccccc3nc2C(=O)O)cc1 [NSC670682] | 43

Source: doi:10.1101/2023.10.03.560722, “Drug Discovery in Low Data Regimes: Leveraging a Computational Pipeline for the Discovery of Novel SARS-CoV-2 Nsp14-MTase Inhibitors” (bioRxiv, 2024)
